The species entered for experiment [1] is Homo sapiens. In words: Antiviral activity against envelope deficient HIV-1 in a single cycle replication assay (experiment 2). It counts as functional.
The species entered for experiment [2] is Homo sapiens. The experiment can be described thus: Antiviral activity against envelope deficient HIV-1 in a single cycle replication assay (experiment 1). The format is functional.

For “2-Hydroxy-4-oxo-4-ferrosinyl-but-2-enoic acid”, the figures for the Control in the experiment listed under Homo sapiens [1] and in the experiment filed under Homo sapiens [2] were 69% and 36%, respectively.

The record behind these values is ChEMBL document CHEMBL1135511, “Structure activity of 3-aryl-1,3-diketo-containing compounds as HIV-1 integrase inhibitors” (J Med Chem, 2002).
